Anti-infective test results gathered from many reports (values: NIAID ChemDB through PubChem).

All rows: target-level tests

Percent inhibition refers to the dose given; in toxicity tests it is the harm to the cells.

structure | strain | measure | target | tested at | species | read by | value
CCC(C)[C@H](NC(=O)[C@@H](NC(=O)CCC(=O)O)C1CCCCC1)C(=O)N[C@@H](CCC(=O)O)C(=O)N[C@@H](CS)C(=O)O |  | inhibition | Nonstructural protein 3 NTPase/helicase | 16.7 µM | Hepatitis C virus |  | 48%
CNC(=O)c1c(-c2ccc(F)cc2)oc2cc(N(Cc3ccc(C(=O)O)cc3)S(C)(=O)=O)c(OC(C)C)cc12 |  | IC50 | Nonstructural protein 5B |  | Hepatitis C virus |  | ≤0.5 µM
O=C(Nc1ccc2cn[nH]c2c1)c1cc(NCCCn2ccnc2)c(F)cc1F |  | inhibition | Reverse transcriptase | 0.01 µg/mL | Hepatitis B virus |  | 30%
O=C1C=C(O)CC(CC2CCc3ccccc32)(C2CCCC2)O1 |  | IC50 | Nonstructural protein 5B |  | Hepatitis C virus |  | >50 µM
CC[C@H](NC(=O)[C@H](CC(C)C)NC(=O)[C@@H](NC(=O)[C@@H](NC(=O)C(CC(=O)O)CC(=O)[C@H](CCC(=O)O)NC(C)=O)C(C)C)C(C)C)C(=O)C(=O)O |  | Ki | NS3 protease |  | Hepatitis C virus |  | <1 µM
O=C(O)c1cc2nc(-c3ccc(-c4cc5ccccc5o4)cc3)c(C3CCCCC3)c(=O)n2[nH]1 |  | IC50 | RNA-dependent RNA polymerase |  | Hepatitis C virus |  | 1–10 µM
O=C1O[C@@](CCc2cccc(O)c2)(C2CCCC2)CC(O)=C1N(c1ccccc1)c1ccccc1 |  | IC50 | Nonstructural protein 5B |  | Hepatitis C virus |  | 10–50 µM
Fc1ccc(COc2ccc(-c3cnc4c(-c5nn[nH]n5)cnn4c3C3CCCCC3)cc2)cc1C(F)(F)F |  | IC50 | RNA-dependent RNA polymerase |  | Hepatitis C virus |  | 1–10 µM
COc1nc(Nc2ccc3[nH]ncc3c2)nc(N2CCN(C(=O)c3cccnc3)CC2)n1 |  | inhibition | DNA polymerase | 1 µg/mL | Hepatitis B virus |  | 58%
FC(F)(F)Oc1ccc(Oc2ccc(-c3cnc4c(-c5nn[nH]n5)cnn4c3C3CCCCC3)cc2)cc1 |  | IC50 | RNA-dependent RNA polymerase |  | Hepatitis C virus |  | 1–10 µM
CC1OC(=O)CC(=O)C1c1ccc(CCC2(C3CCCC3)CC(=O)CC(=O)O2)cc1 |  | IC50 | Nonstructural protein 5B |  | Hepatitis C virus |  | <1 µM
CC(C)C[C@@]1(C(=O)O)C[C@H](c2nc3ccccc3o2)[C@H](c2nccs2)N1C(=O)c1ccc(C(C)(C)C)c(Br)c1 |  | IC50 | RNA-dependent RNA polymerase |  | Hepatitis C virus |  | <50 µM
Nc1cnn2c(C3CCCCC3)c(-c3ccc(OCc4ccccc4)cc3)cnc12 |  | IC50 | RNA-dependent RNA polymerase |  | Hepatitis C virus |  | >10 µM
CC(C)(C)OC(=O)C(=O)N[C@H](C(=O)N1C[C@@H](n2cc(-c3ccccc3)nn2)C[C@H]1C(=O)N[C@H](Cc1ccccc1)C(=O)NS(=O)(=O)C1CC1)C(C)(C)C |  | IC50 | Nonstructural protein 3/4A |  | Hepatitis C virus | FRET | >100 µM
CCC[C@]1(CC(=O)O)OCCc2c1[nH]c1c(C)ccc(C#N)c21 | 207-221 genotype 1A | IC50 | NS5B polymerase |  | Hepatitis C virus |  | 0.7 µM
Cc1noc([C@@H]2C[C@@](CC(C)C)(C(=O)O)N(C(=O)c3ccc(C(C)(C)C)cc3)[C@H]2c2cccs2)n1 |  | IC50 | RNA-dependent RNA polymerase |  | Hepatitis C virus |  | <50 µM
CCN(CCO)c1cc(C(=O)Nc2ccc3cn[nH]c3c2)c(F)cc1F |  | IC50 | Reverse transcriptase |  | Hepatitis B virus |  | 0.01–0.1 µg/mL
CC[C@H](C)[C@H](NC(=O)[C@@H](NC(=O)CCC(=O)O)C1CCCCC1)C(=O)N[C@@H](CC1CCCCC1)C(=O)NC1(C(=O)O)CC1 |  | inhibition | Nonstructural protein 3 NTPase/helicase | 83.5 µM | Hepatitis C virus |  | 38%
CC(C)C[C@@]1(C(=O)O)C[C@@H](c2ncno2)[C@H](c2nccs2)N1C(=O)c1ccc(C(C)(C)C)cc1 |  | IC50 | RNA-dependent RNA polymerase |  | Hepatitis C virus |  | <50 µM
CC[C@H](NC(=O)[C@H](CC(C)C)NC(=O)[C@@H](NC(=O)[C@@H](NC(=O)c1cnccn1)C(C)C)C(C)C)C(=O)C(=O)OC |  | Ki | NS3 protease |  | Hepatitis C virus |  | >100 µM
O=C(O)c1cc2nc(-c3ccoc3)c(CCC3CCCCC3)c(=O)n2[nH]1 |  | IC50 | RNA-dependent RNA polymerase |  | Hepatitis C virus |  | <1 µM
C=CC1CC1(NC(=O)[C@@H]1C[C@@H](OC(=O)N(CCCC)CCCC)CN1C(=O)[C@@H](NC(=O)OC(C)(C)C)C(C)(C)C)C(=O)NS(=O)(=O)C1CC1 | BMS/H77C/J416S | IC50 | NS3/NS4A protease |  | Hepatitis C virus |  | 0.1–1 µM
CC(C)C[C@@]1(C(=O)O)C[C@H](c2ncno2)[C@H](c2ccccn2)N1C(=O)c1ccc(C(C)(C)C)cc1 |  | IC50 | RNA-dependent RNA polymerase |  | Hepatitis C virus |  | <50 µM
Cc1ccc(C(=O)N(C)c2cc(-c3ccc([N+](=O)[O-])cc3)sc2C(=O)O)cc1 |  | IC50 | NS3 ATPase |  | Hepatitis C virus |  | 5–20 µM
CC[C@H](C)[C@H](NC(=O)[C@H](CC(C)C)NC(=O)CCCC(=O)O)C(=O)N[C@@H](CC1CCCCC1)C(=O)NC1(C(=O)O)CC1 |  | inhibition | Nonstructural protein 3 NTPase/helicase | 167 µM | Hepatitis C virus |  | 12%
COc1cccc(-c2cc(-c3ccc(F)cc3)nc3cc(C(=O)O)nn23)c1 |  | IC50 | RNA-dependent RNA polymerase |  | Hepatitis C virus |  | >10 µM
O=C(O)CCC(=O)N[C@H](C(=O)N[C@@H](CCC(=O)O)C(=O)N[C@@H](Cc1ccccc1)C(=O)N[C@@H](CS)C(=O)O)C(c1ccccc1)c1ccccc1 |  | inhibition | Nonstructural protein 3 NTPase/helicase | 16.7 µM | Hepatitis C virus |  | 31%
O=C(Nc1ccc2[nH]ncc2c1)c1cc(NCCN2CCCC2)c(F)cc1F |  | inhibition | Reverse transcriptase | 0.1 µg/mL | Hepatitis B virus |  | 54%
CC[C@H](NC(=O)[C@H](CC(C)C)NC(=O)[C@@H](NC(=O)[C@@H](NC(=O)[C@H](CC(=O)O)NC(=O)[C@@H](N)CCC(=O)O)C(C)C)C(C)C)C(=O)c1ncc(-c2c(Cl)cccc2Cl)o1 |  | Ki | NS3 protease |  | Hepatitis C virus |  | >100 µM
COc1ccc(CCC2(C3CCCC3)CC(O)=C(Sc3nc4ccccc4o3)C(=O)O2)cc1Cl |  | IC50 | Nonstructural protein 5B |  | Hepatitis C virus |  | <1 µM
CC(C)NC1=NC(NC(C)C)N(CN)C(Nc2ccc3cn[nH]c3c2)=N1 |  | inhibition | Nonstructural protein 5B | 0.1 µg/mL | Hepatitis C virus |  | 38%
CC(Cc1ccccn1)Nc1cc(C(=O)Nc2ccc3cn[nH]c3c2)c(F)cc1F |  | inhibition | Reverse transcriptase | 1 µg/mL | Hepatitis B virus |  | 58%
O=C1C=C(O)CC(CCc2ccc(Oc3ccccc3)cc2)(C2CCCC2)O1 |  | IC50 | Nonstructural protein 5B |  | Hepatitis C virus |  | 10–50 µM
Cc1ccccc1S(=O)(=O)Nc1cc(-c2ccc(C(=O)O)cc2)sc1C(=O)O |  | IC50 | NS3 ATPase |  | Hepatitis C virus |  | <5 µM
CC[C@H](NC(=O)[C@H](CC(C)C)NC(=O)[C@@H](NC(=O)[C@@H](NC(=O)c1cnccn1)C(C)C)C(C)C)C(=O)C(=O)O |  | Ki | NS3 protease |  | Hepatitis C virus |  | 1–100 µM
Cc1nnc([C@@H]2C[C@@](CC(C)C)(C(=O)O)N(C(=O)c3ccc(C(C)(C)C)cc3)[C@H]2c2nccs2)o1 |  | IC50 | RNA-dependent RNA polymerase |  | Hepatitis C virus |  | <50 µM
C=CC1CC1(NC(=O)[C@@H]1C[C@@H](OC(=O)Nc2ccccc2OCC)CN1C(=O)[C@@H](NC(=O)OC(C)(C)C)C(C)(C)C)C(=O)NS(=O)(=O)C1CC1 | BMS/H77C/J416S | IC50 | NS3/NS4A protease |  | Hepatitis C virus |  | <0.1 µM
CCOC(=O)C1CCN(c2nc(Nc3ccc4[nH]ncc4c3)nc(OC)n2)CC1 |  | inhibition | DNA polymerase | 0.01 µg/mL | Hepatitis B virus |  | 6%
C=CC1CC1(NC(=O)[C@@H]1C[C@@H](OC(=O)Nc2ccccc2-c2ccc(C)o2)CN1C(=O)[C@@H](NC(=O)OC(C)(C)C)C(C)(C)C)C(=O)NS(=O)(=O)C1CC1 | BMS/H77C/J416S | IC50 | NS3/NS4A protease |  | Hepatitis C virus |  | <0.1 µM
COc1nc(Nc2ccc3cn[nH]c3c2)nc(N2CCN(C(=O)c3cccnc3)CC2)n1 |  | inhibition | DNA polymerase | 1 µg/mL | Hepatitis B virus |  | 46%
CC(=O)N[C@@H](CCC(=O)O)C(=O)N[C@@H](CCC(=O)O)C(=O)N[C@@H](CS)C(=O)O |  | IC50 | Nonstructural protein 3 NTPase/helicase |  | Hepatitis C virus |  | >16.7 µM
CC[C@@H](C=O)NC(=O)[C@@H]1C[C@@H](OCc2ccccc2)CN1C(=O)[C@@H](NC(=O)[C@@H](NC(=O)CO)C(C)C)C(C)C |  | Ki | NS3 protease |  | Hepatitis C virus |  | 1–100 µM
CC(=O)c1ccc(-c2cc(NS(=O)(=O)c3ccc(C)cc3C)c(C(=O)O)s2)cc1 |  | IC50 | NS3 ATPase |  | Hepatitis C virus |  | <5 µM
CNC(=O)c1c(-c2ccc(F)cc2)oc2cc(C3(C)CNC(=O)O3)c(OC(C)C)cc12 |  | IC50 | Nonstructural protein 5B |  | Hepatitis C virus |  | ≤0.5 µM
C=CC1CC1(NC(=O)[C@@H]1C[C@@H](OC(=O)Nc2ccccc2)CN1C(=O)[C@@H](NC(=O)OC(C)(C)C)C(C)(C)C)C(=O)O | BMS/H77C/J416S | IC50 | NS3/NS4A protease |  | Hepatitis C virus |  | >10 µM
O=C(O)c1cc2nc(-c3cccc(Oc4ccccc4)c3)cc(Nc3cccc(OCc4ccccc4)c3)n2n1 |  | IC50 | RNA-dependent RNA polymerase |  | Hepatitis C virus |  | 1–10 µM
CC(C)C[C@@]1(C(=O)O)C[C@@H](c2ncn[nH]2)[C@H](c2nccs2)N1C(=O)c1ccc(C(C)(C)C)cc1 |  | IC50 | RNA-dependent RNA polymerase |  | Hepatitis C virus |  | <50 µM
CNC(=O)c1c(-c2ccccc2)oc2ccc(OC)c(C)c12 |  | IC50 | Nonstructural protein 5B |  | Hepatitis C virus |  | >30 µM
Cc1nnc([C@H]2C[C@@](CC(C)C)(C(=O)O)N(C(=O)c3ccc(C(C)(C)C)cc3)[C@H]2c2nccs2)o1 |  | IC50 | RNA-dependent RNA polymerase |  | Hepatitis C virus |  | <50 µM
CN(C)CCNc1cc(C(=O)Nc2ccc3cn[nH]c3c2)c(F)cc1F |  | inhibition | Reverse transcriptase | 1 µg/mL | Hepatitis B virus |  | 39%
CNC(=O)c1c(-c2ccc(F)cc2)oc2cc(C(C)=O)c(OC)cc12 |  | IC50 | Nonstructural protein 5B |  | Hepatitis C virus |  | ≤0.5 µM
O=C(O)c1sc(-c2ccccc2)cc1N(C(=O)c1ccc(Cl)cc1Cl)C1CCC(C(=O)O)C1 |  | IC50 | NS3 ATPase |  | Hepatitis C virus |  | <5 µM
COc1ccc(-c2cnc3c(C(=O)O)cnn3c2C2CCCCC2)cc1OC |  | IC50 | RNA-dependent RNA polymerase |  | Hepatitis C virus |  | >10 µM
CC(C)C[C@H](NC(=O)CCC(=O)O)C(=O)N[C@@H](CCC(=O)O)C(=O)N[C@@H](CCC(=O)O)C(=O)N[C@@H](CS)C(=O)O |  | inhibition | Nonstructural protein 3 NTPase/helicase | 167 µM | Hepatitis C virus |  | 100%
C=CC1CC1(NC(=O)[C@@H]1C[C@@H](OC(=O)Nc2c(CC)cccc2C(C)C)CN1C(=O)[C@@H](NC(=O)OC(C)(C)C)C(C)(C)C)C(=O)NS(=O)(=O)C1CC1 | BMS/H77C/J416S | IC50 | NS3/NS4A protease |  | Hepatitis C virus |  | 1–10 µM
Cc1ccc(CN(C(=O)C2CCC2)c2cc(-c3ccccc3)sc2C(=O)O)cc1 |  | IC50 | NS3 ATPase |  | Hepatitis C virus |  | <5 µM
COc1nc(Nc2ccc3[nH]ncc3c2)nc(N2CCCC2)n1 |  | inhibition | Nonstructural protein 5B | 10 µg/mL | Hepatitis C virus |  | 75%
CC(C)(C)c1ccc(C(=O)N2[C@@H](c3nccs3)[C@@H](c3nnco3)C[C@@]2(Cc2ccccc2)C(=O)O)cc1 |  | IC50 | RNA-dependent RNA polymerase |  | Hepatitis C virus |  | <50 µM
O=C(O)CCCC(=O)N[C@H](C(=O)N[C@@H](CCC(=O)O)C(=O)N[C@@H](CCC(=O)O)C(=O)NC1(C(=O)O)CC1)C(c1ccccc1)c1ccccc1 |  | inhibition | Nonstructural protein 3 NTPase/helicase | 167 µM | Hepatitis C virus |  | 24%
Cc1ccc(C(=O)N(c2cc(-c3ccccc3)sc2C(=O)O)C(C)C)c(C)c1 |  | IC50 | NS3 ATPase |  | Hepatitis C virus |  | <5 µM
O=C(O)CCCC(=O)N[C@@H](CCC(=O)O)C(=O)N[C@@H](CCC(=O)O)C(=O)NC1(C(=O)O)CC1 |  | inhibition | Nonstructural protein 3 NTPase/helicase | 167 µM | Hepatitis C virus |  | 24%
CC(=O)Nc1cc(C(C)(C)C)c(SC2=C(O)CC(CCc3ccc(O)cc3)(C3CCCC3)OC2=O)cc1C |  | IC50 | Nonstructural protein 5B |  | Hepatitis C virus |  | 1–10 µM
Cc1noc([C@@H]2C[C@@](CC(C)C)(C(=O)O)N(C(=O)c3ccc(C(C)(C)C)cc3)[C@H]2c2nccs2)n1 |  | IC50 | RNA-dependent RNA polymerase |  | Hepatitis C virus |  | <50 µM
C=CC1CC1(NC(=O)[C@@H]1C[C@@H](OC(=O)Nc2cccc(C(=O)OCC)c2)CN1C(=O)[C@@H](NC(=O)OC(C)(C)C)C(C)(C)C)C(=O)NS(=O)(=O)C1CC1 | BMS/H77C/J416S | IC50 | NS3/NS4A protease |  | Hepatitis C virus |  | 0.1–1 µM
CN(C(=O)c1ccc(C(F)(F)F)c(F)c1)c1cc(-c2ccccc2)sc1C(=O)O |  | IC50 | NS3 ATPase |  | Hepatitis C virus |  | 5–20 µM

Rows are shuffled and stem from different studies. Blank or dashed fields: not listed here. a–b is a range or a potency band. ICn is the concentration giving n% inhibition.